In PubChem BioAssay AID602123 (The Scripps Research Institute Molecular Screening Center, 2011):
Only a part is listed here, and it is no random draw. Activity calls are given as the source filed them. Cut-off read from the data, not from the text of the source: active = inhibition above about 13% (passing the limit was not always enough); inactive = the rest.

Chains of the proteins cited; added tags and fusions are not shown.
UniProt P0A9M0, whole entry, looked up: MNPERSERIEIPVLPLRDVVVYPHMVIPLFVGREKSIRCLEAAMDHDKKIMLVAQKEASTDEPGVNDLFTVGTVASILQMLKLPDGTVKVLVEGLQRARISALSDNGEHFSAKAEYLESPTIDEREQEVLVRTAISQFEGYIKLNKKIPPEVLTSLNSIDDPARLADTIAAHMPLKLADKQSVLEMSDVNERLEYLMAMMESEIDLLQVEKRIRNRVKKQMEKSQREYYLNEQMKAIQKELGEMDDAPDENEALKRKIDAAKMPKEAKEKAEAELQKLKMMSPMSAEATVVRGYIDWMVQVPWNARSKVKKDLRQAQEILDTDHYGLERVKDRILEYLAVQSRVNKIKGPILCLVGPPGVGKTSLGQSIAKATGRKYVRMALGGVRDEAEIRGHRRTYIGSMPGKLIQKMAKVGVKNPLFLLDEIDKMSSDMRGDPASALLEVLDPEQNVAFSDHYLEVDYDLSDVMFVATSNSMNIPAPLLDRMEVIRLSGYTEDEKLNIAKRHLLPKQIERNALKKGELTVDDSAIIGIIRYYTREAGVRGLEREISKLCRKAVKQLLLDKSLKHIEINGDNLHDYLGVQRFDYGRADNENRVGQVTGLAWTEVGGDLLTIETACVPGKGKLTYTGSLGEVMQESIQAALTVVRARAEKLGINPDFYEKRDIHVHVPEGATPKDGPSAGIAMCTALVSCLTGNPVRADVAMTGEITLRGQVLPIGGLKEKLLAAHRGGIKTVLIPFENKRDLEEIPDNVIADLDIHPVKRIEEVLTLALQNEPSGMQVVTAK

Each compound was assayed against Lon protease (Escherichia coli (strain K12)) (UniProt P0A9M0) (assay: inhibitors of E. coli Lon protease, primary screen, biochemical, fluorescence polarization (AID 602123;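 note: 0% = enzyme with probe and DMSO and 100% = no enzyme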)). Settings: purified E. coli Lon protease, at 7.94 µM, active compounds read high.

Compound | inhibition
CC(C)(C)C(=O)NC(Sc1ccccc1)C(Cl)(Cl)Cl (configuration not stated) | inactive: 0.07%
CCOc1ccc(C2=NCC(CBr)S2)cc1 (configuration not stated) | inactive: -4.52%
O=P1(Nc2nc3ccc(Cl)cc3s2)COc2ccccc2O1 (configuration not stated) | inactive: -5.88%
CN(C)C(=O)Oc1noc2ccccc12 | inactive: -3.44%
O=c1c2cc([N+](=O)[O-])ccc2[nH]c2c([N+](=O)[O-])cc([N+](=O)[O-])cc12 | inactive: -7.66%
Cc1ccccc1OP(=O)(Nc1ccccn1)Oc1ccccc1C | inactive: -0.44%
CC(NC(=O)COC(=O)C(O)(c1ccccc1)c1ccccc1)c1ccccc1 (configuration not stated) | inactive: -2.54%
Cc1ccc(OP(=O)(Nc2ccccn2)Oc2ccc(C)cc2)cc1 | inactive: 5.85%
CC(=O)NC(SC(=S)N(CC(C)C)CC(C)C)C(Cl)(Cl)Cl (configuration not stated) | inactive: -2.94%
COC(=O)c1cc2c(s1)N=C(c1ccccc1)N(C)P2(=O)N1CCOCC1 (configuration not stated) | inactive: -3.04%
CCC(=O)N1C2C3N(C(=O)CC)C1C1N(C(=O)CC)C(C(N1C(=O)CC)N3C(=O)CC)N2C(=O)CC | inactive: -6.42%
O=C(OC1CN2CCC1CC2)c1ccccc1 (configuration not stated) | inactive: 0.61%
O=P1(N(CCCl)CCCl)OCCC2CCCCN21 (configuration not stated) | inactive: 3.54%
CCNC(=S)/N=C(\N)N[N+](=O)[O-] | inactive: -0.05%
O=C(NC1CCS(=O)(=O)C1)NP(=S)(Oc1ccccc1)Oc1ccccc1 (configuration not stated) | inactive: 3.31%
Cc1ccc(NP(=O)(Oc2cccc(C)c2)Oc2cccc(C)c2)nc1 | inactive: -3.62%
c1ccc(-c2nn[nH]n2)c(-c2nn[nH]n2)c1 | inactive: 4.96%
Nc1ccc([As](=O)(O)c2ccc([N+](=O)[O-])cc2)cc1 | inactive: 3.45%
C(Cc1nn[nH]n1)Cc1nn[nH]n1 | inactive: -8.29%
O=C(OC1CN2CCC1CC2)c1cccc(Cl)c1 (configuration not stated) | inactive: -0.19%
O=[N+]([O-])c1ccc(O)c(/C=N/Nc2ccc([N+](=O)[O-])cc2[N+](=O)[O-])c1 | inactive: -11.8%
O=[N+]([O-])c1ncn(CCn2cnc([N+](=O)[O-])n2)n1 | inactive: -8.5%
CC(=O)NC(SC(=S)N(C)C)C(Cl)(Cl)Cl (configuration not stated) | inactive: 4.95%
O=[As](O)(c1ccccc1)c1ccc(O)cc1 | inactive: -8.44%
C[C@H]1OP(=O)(Oc2ccccc2)[C@H](O)[C@H](O)[C@H]1N=[N+]=[N-] (some centres not stated) | inactive: 0.24%
O=P(Nc1nc2ccccc2s1)(c1ccccc1)c1ccccc1 | inactive: -5.89%

Compound | inhibition
Nc1ccc(CCCCOc2ccccc2)cc1 | inactive: -3.67%
COc1ccc(N)c([N+](=O)[O-])c1[N+](=O)[O-] | inactive: -10.4%
O=P(Nc1ccccn1)(c1ccc(Br)cc1)c1ccc(Br)cc1 | inactive: 6.8%
CN(C)C1(CNC(=O)c2ccc(Cl)c(S(N)(=O)=O)c2)CCCCC1 | inactive: -6.02%
c1nnnn1CCn1cnnn1 | inactive: 1.36%
CC(C)C(=O)NC(Sc1ccccc1)C(Cl)(Cl)Cl (configuration not stated) | inactive: -5.68%
O=P(Nc1nccs1)(c1ccccc1)c1ccccc1 | inactive: -6.54%
CN(C)C(=O)OCCc1n(C)cc[n+]1C | inactive: 7.31%
CC(C)=N/N=C(\N)N[N+](=O)[O-] | inactive: -8.73%
CC(C)c1nc(Nc2ccccc2)n(P(=O)(N(C)C)N(C)C)n1 | inactive: -16.5%
c1cc(-c2nn[nH]n2)ccc1-c1nn[nH]n1 | inactive: -8.9%
CC1CCN(C(=O)Oc2c(Cl)cc(Cl)c3cccnc23)CC1 | inactive: -3.53%
C[N+]1=C2C=CC=CC=C2SC12C([N+](=O)[O-])=CC([N+](=O)[O-])=C[C-]2[N+](=O)[O-] (configuration not stated) | inactive: 3.33%
Nc1ccc([As](=O)(O)c2ccc(N)cc2)cc1 | inactive: 8.12%
CCN(/C(=N/P(=O)(N1CCOCC1)N1CCOCC1)N1CCOCC1)c1ccc(OC)cc1 | inactive: 7.64%
O=[N+]([O-])c1cccc2n[nH]nc12 | inactive: 0.79%
CC(=O)N1C2C3N(C(C)=O)C1C1N(C(C)=O)C(C(N1C(C)=O)N3C(C)=O)N2C(C)=O | inactive: -7.4%
CCc1nc2c(n1)c1c(non1O)c1c2no[n+]1[O-] | inactive: -1.71%
O=[N+]([O-])c1cc([N+](=O)[O-])c(CCNc2ccccc2)c([N+](=O)[O-])c1 | inactive: 1.88%
Cc1ccc(NP(=O)(Oc2ccccc2)Oc2ccccc2)nc1 | inactive: -1.46%
COc1ccc(C2=NCC(CBr)S2)cc1 (configuration not stated) | inactive: 11.8%
O=[N+]([O-])c1cccc(NC2=NCC(CBr)S2)c1 (configuration not stated) | inactive: 2.5%
COC(=O)C1(C)COP(=O)(Nc2ccccc2)OC1 (configuration not stated) | inactive: -14.3%
O=C(O)CNc1ccc([As](=O)(O)O)cc1 | inactive: -5.25%
CC(C)(C)C(=O)NC(Sc1ccncn1)C(Cl)(Cl)Cl (configuration not stated) | inactive: -16.9%
O=[N+]([O-])c1ncn(CCn2ncnc2[N+](=O)[O-])n1 | inactive: 5.49%

Compound | inhibition
O=C(Nc1cc([As](=O)(O)O)ccc1O)c1ccccc1 | inactive: -0.58%
O=P1(N(CCCl)CCCl)OCCCS1 (configuration not stated) | inactive: -4.61%
CCN(N=Nc1nonc1N)c1nonc1N | inactive: -12.9%
Nc1cccc2ccc([As](=O)(O)O)cc12 | inactive: 11.2%
Cc1ccc(NP(=O)(Oc2ccccc2F)Oc2ccccc2F)nc1 | inactive: 2.28%
CN(C(=O)Cc1ccc(Cl)c(Cl)c1)[C@H]1CCCC[C@@H]1N1CCCC1 | inactive: 7.23%
CCOP(=O)(Nc1ccccc1)OCC | inactive: 2.42%
Cc1cc(SC(NC(=O)c2ccc(F)cc2)C(Cl)(Cl)Cl)ncn1 (configuration not stated) | inactive: -9.27%
CCCC1OP(N)(=O)OCC1CC (configuration not stated) | inactive: 1.79%
O=C(O)c1ccccc1[As](=O)(O)O | inactive: 6.44%
CC(=O)Nc1ccc([As](=O)(O)O)cc1 | inactive: -10.2%
CN(C)P(=O)(N(C)C)n1c(Nc2ccccc2)nnc1-c1ccccc1 | inactive: -0.6%
O=P(Nc1nc2ccc(Cl)cc2s1)(c1ccccc1)c1ccccc1 | inactive: 0.45%
O=[N+]([O-])C1C(O)C(O)C([N+](=O)[O-])C(O)C1O (configuration not stated) | inactive: 0.3%
CC(C)CC(=O)NC(Sc1ccc(Cl)cc1)C(Cl)(Cl)Cl (configuration not stated) | inactive: -5.36%
Nc1cc(N)c2nonc2c1[N+](=O)[O-] | inactive: 1.27%
O=C(NC(Sc1ccncn1)C(Cl)(Cl)Cl)c1ccccc1 (configuration not stated) | inactive: -9.35%
Oc1ccccc1CNc1ccccn1 | inactive: -0.18%
Cc1ccc(OP(=O)(Nc2nccs2)Oc2ccc(C)cc2)cc1 | inactive: 15.2%
COc1ccccc1OP(=O)(Nc1ccc(C)cn1)Oc1ccccc1OC | inactive: -4.27%
Clc1ccc(Cl)c(NC2=NCC(CBr)S2)c1 (configuration not stated) | inactive: 4.87%
CN1CCCC(OC(=O)C(c2ccccc2)c2ccccc2)C1 (configuration not stated) | inactive: -3.66%
NC(=O)c1cc([N+](=O)[O-])cc([N+](=O)[O-])c1N | inactive: -6.25%
Cc1ccc(N/C(=N/P(=O)(N2CCOCC2)N2CCOCC2)N2CCOCC2)cc1 | inactive: 12%
CN(C(=O)Cc1ccc(Cl)c(Cl)c1)[C@H]1CCCC[C@H]1N1CCCC1 | inactive: -12.8%
